From PubChem BioAssay AID1347069 (National Center for Advancing Translational Sciences (NCATS), 2019)
Only a part is listed here, and it is no random draw. Activity calls are given as the source filed them. Calls follow the shape of the dose curve; as a rule, active = well fitted inhibition curve with a large enough effect; inconclusive = small, poorly fitted or top-dose-only effect; inactive = flat fitted curve, though single readings scatter.

Protein sequences, listed by entry. Tags and fused reporters are not part of them.
UniProt Q99816, whole entry: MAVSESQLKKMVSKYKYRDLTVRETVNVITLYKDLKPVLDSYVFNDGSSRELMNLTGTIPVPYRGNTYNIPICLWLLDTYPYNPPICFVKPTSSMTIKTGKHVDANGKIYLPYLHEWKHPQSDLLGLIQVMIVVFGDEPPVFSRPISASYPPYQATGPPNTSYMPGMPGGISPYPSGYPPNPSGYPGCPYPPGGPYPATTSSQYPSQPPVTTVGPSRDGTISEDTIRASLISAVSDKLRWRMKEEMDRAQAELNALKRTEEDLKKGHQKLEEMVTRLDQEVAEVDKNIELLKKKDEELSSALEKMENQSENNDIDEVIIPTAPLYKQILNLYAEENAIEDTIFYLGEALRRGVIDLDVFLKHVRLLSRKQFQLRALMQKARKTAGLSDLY

target: Tumor susceptibility gene 101 protein (Homo sapiens) (UniProt Q99816); test: qHTS Validation Assay for Inhibitors of HIV-1 Budding by Blocking the Interaction of PTAP/TSG101: Sytravon Library Screen; details: Fluorescence polarization, FITC-PTAP peptide/Tsg101, 20 min; at 115 µM (top of the series); also: 0% is about no effect
Excerpt: Stages of the HIV-1 replication cycle, specifically virus assembly and release, provide underexploited targets for the development of novel antiviral inhibitors. The late stages of HIV-1 replication are mediated by the Gag precursor protein, Pr55Gag. Expression of Pr55Gag is both necessary and sufficient for the production of virus-like particles from Gag-expressing cells. The Gag protein hijacks key host proteins involved in endocytic machinery of the host cell to promote endosomal processing and viral budding. The budding process requires a direct interaction between a […] (PTAP) motif in the p6 domain of Gag and the cellular endosomal sorting protein known as Tsg101. In this way, the Gag PTAP motif promotes the host cells to recruit viral particles to the plasma membrane where the new viral particles are released, effectively turning the host cells into viral factories. A fluorescence polarization assay has been developed to quantitatively measure the PTAP-Tsg101 interaction which can be used to screen for inhibitors of this interaction. This assay was run against the NCGC Sytravon Library collection. NIH Molecular Libraries Probe Production Network [MLPCN] NIH Chemical Genomics Center [NCGC] Grant: R03 MH087464-01A1 PI Name: Dr. Eric Freed, NCI
Two uL of the Tsg101 binding domain in buffer (10 mM HEPES pH 7.5; 0.15 M NaCl, 0.01% Tween 20; 3 mM EDTA;0.1 mM TCEP) was dispensed into Greiner black MB 1536-well plates (final concentration 10 uM). Then, 23 nL of compounds or DMSO were delivered to each well using a pin tool. Finally, 2 uL of a FITC-labeled peptide containing the PTAP motif (1) in the same buffer was dispensed (50 nM final concentration) and the binding was allowed to proceed for 20 min. at r.t. Fluorescent polarization was determined using FITC excitation and polarized emission filters on a Perkin Elmer Envision. Assay cut-off (positive/negative criteria): Actives defined by CRC class, <25 µM; Efficacy <60% inhibition. The total fluorescent intensity from S and P channels will be used to flag fluorescent compounds.

SMILES | activity change, negative = inhibition
O=C(NCC1(N2CCOCC2)CCCCC1)c1ccccc1[N+](=O)[O-] | inactive: -3.1%
O=C(NCC1(N2CCOCC2)CCCCC1)c1ccc([N+](=O)[O-])cc1 | inactive: 0.893%
O=C(NCC1(N2CCOCC2)CCCCC1)c1ccccc1 | inactive: -5.54%
COc1cc(C(=O)NCC2(N3CCOCC3)CCCCC2)cc(OC)c1OC | inactive: -0.449%
CN(C)C1(CNC(=O)c2ccc(C(C)(C)C)cc2)CCCCC1 | inactive: -4.73%
Cc1ccccc1C(=O)NCC1(N(C)C)CCCCC1 | inactive: -0.349%
CC(C)(C)c1ccc(C(=O)NCC2(N3CCOCC3)CCCCC2)cc1 | inactive: -0.979%
O=C(NCC1(N2CCOCC2)CCCCC1)c1ccc(Cl)cc1 | inactive: 1.36%
COc1ccccc1C(=O)NCC1(N2CCOCC2)CCCCC1 | inactive: -0.0296%
O=C(NCC1(N2CCOCC2)CCCCC1)c1ccccc1Br | inactive: -4.39%
CCCCOc1ccccc1C(=O)NCC1(N2CCOCC2)CCCCC1 | inactive: -4.56%
CCOc1ccc(C(=O)NCC2(N3CCOCC3)CCCCC2)cc1 | inactive: 3.77%
CCCOc1cccc(C(=O)NCC2(N3CCOCC3)CCCCC2)c1 | inactive: -10.4%
